Experimental data as given in ChEMBL document CHEMBL1153554, “Mechanisms by which the G333D mutation in human immunodeficiency virus type 1 Reverse transcriptase facilitates dual resistance to zidovudine and lamivudine” (Antimicrob Agents Chemother, 2008).

Experiments:
[1] = tested on: Human immunodeficiency virus type 1 reverse transcriptase (Human immunodeficiency virus 1), Q72547 [M184V]; assay: Ratio of Kpol to Kd for HIV1 LAI reverse transcriptase M184V mutant
Summary of the method: (§1)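 Pre-steady-state rapid quench: 400 nM active-site RT and 40 nM ³²P-P20/T57 DNA T/P were preincubated in 50 mM Tris-HCl pH 7.5, 50 mM KCl, then mixed with nucleotide in the same buffer containing 20 mM MgCl₂. Quenched with 0.3 M EDTA from 10 ms to 30 min, run on urea-PAGE. kobs came from single-exponential fits; kpol and Kd came from a hyperbolic fit versus nucleotide concentration.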

[2] = tested on: Human immunodeficiency virus type 1 reverse transcriptase (Human immunodeficiency virus 1), Q72547 [M41L,L210W,T215Y]; assay: Ratio of Kpol to Kd for HIV1 LAI reverse transcriptase M41L/L210W/T215Y mutant; summary of the method: as §1
[3] = tested on: Human immunodeficiency virus type 1 reverse transcriptase (Human immunodeficiency virus 1), Q72547 [M41L,L210W,T215Y,M184V]; assay: Ratio of Kpol to Kd for HIV1 LAI reverse transcriptase M41L/L210W/T215Y/M184V mutant; summary of the method: as §1
[4] = tested on: Human immunodeficiency virus 1; assay: Ratio of Kpol to Kd for HIV1 LAI reverse transcriptase M41L/L210W/T215Y/M184V/G333D mutant; summary of the method: as §1

Work on `Cc1cn([C@H]2C[C@H](O)[C@@H](COP(=O)(O)OP(=O)(O)OP(=O)(O)O)O2)c(=O)[nH]c1=O` [DEOXYTHYMIDINE_TRIPHOSPHATE] yielded a Ratio [1] of 2.3, a Ratio [2] of 4.17 and a Ratio [3] of 1.98. It also gave a Ratio [4] of 1.7.
